Results deposited as PubChem BioAssay AID504761 (Drosophila RNAi Screening Center, 2011)
The deposit covers about 22,000 reagents; this is an unselected part of those with a known target gene and a result. In the full data, 116 (0.52%) were called active. 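Calls depend on retest data that are not deposited; infection was ranked per plate without normalising between plates; the unit of the infection score is not given.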 Raw values are not corrected between plates. A plus sign joins genes that one reagent is predicted to hit. Not given: the amount of reagent, the time to read-out.

- Test: 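Fly genes whose silencing reduces dengue virus type 2 infection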 (primary screen)
- Cell system: D.Mel-2 cells from Drosophila
- Knock-down reagent: long dsRNA against Drosophila genes
- Treatment: infection with dengue virus type 2; dose and infection time not stated
- Measurement: 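Cells stained for dengue envelope protein and imaged; percent of infected cells per well on duplicate plates, ranked by infection, with stained nuclei counted for cell number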
- Reading the numbers: infection score: higher = more virus-infected cells; cell count: higher = more cells in the well
- Rule for the call: 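Low infection ranks in the two replicates (chance level up to 0.065) followed by a retest with a 1.5-fold or larger significant decrease, p below 0.05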
- Calls: active = confirmed: knock-down lowers infection; inactive = not picked or not confirmed

target	dsRNA	infection score, replicate 1	infection score, replicate 2	cell count, replicate 1	cell count, replicate 2	Outcome
CG43736 + CG33692 (retired record)	DRSC18370	7.54	9.86	5739	6063	inactive
CG43736 + CG33692 (retired record)	DRSC18371	15.4	17.6	6128	5715	inactive
CG43736 + CG33692 (retired record)	DRSC27351	41.2	14.8	4943	6632	inactive
mfas	DRSC16997	14.2	14.1	6226	6338	inactive
mfas	DRSC28658	21.1	6.58	3512	957	inactive
CG14567	DRSC11728	6.51	6.1	6376	6250	inactive
Arc2	DRSC06436	10.7	6.39	6277	6963	inactive
Arc2	DRSC28707	8.25	7.3	5408	5398	inactive
Nup37	DRSC14419	9.97	1.08	6017	6734	inactive
CG6424	DRSC05936	6.38	10.2	6775	6230	inactive
CG6424	DRSC28768	9.36		1186	359	inactive
St3	DRSC04505	1.33		6555		inactive
GstS1	DRSC07436	6.77	2.92	6843	6840	inactive
CR33317	DRSC02653	4.41	0.86	5238	6638	inactive
CG5498	DRSC11608	10.9	12.4	1450	5708	inactive
CG2162	DRSC08557	11.7	7.04	6713	6773	inactive
CG2162	DRSC25030	6.74	5.32	5739	5623	inactive
TTLL15	DRSC15543	2.08	4.8	5958	6224	inactive
CG9899	DRSC04597	13.3	13.4	5047	3180	inactive
CG10038	DRSC14178	10.3	4.87	6893	6979	inactive
CG12662	DRSC17865	14.8	9.31	5228	3404	inactive
PolZ1	DRSC06800	5.17	20.4	5864	5689	inactive
PolZ1	DRSC28574			391	393	inactive
Gr59d	DRSC22553	25	2.66	4787	6311	inactive
Best4	DRSC10792	2.27	0.7	6170	6891	inactive
Best4	DRSC29196	17	12.2	5693	4763	inactive
Rsbp15	DRSC14176	2.76	17.9	6892	6082	inactive
Rsbp15	DRSC29051	9.97	14.3	4322	4986	inactive
fry	DRSC08993	2.1	0.7	6343	6263	inactive
fry	DRSC10172	1.13	4.39	6379	6238	inactive
fry	DRSC10709	1.57	1.3	6162	6782	inactive
fry	DRSC10712	10.3	11.3	6561	7276	inactive
CG32176	DRSC10057	7.25		3586	377	inactive
CG32176	DRSC10058	5.15	7.52	3882	4484	inactive
MFS18	DRSC00452	5.01	15.7	6231	3323	inactive
Mocs1	DRSC11225	2.2	2.63	6361	6415	inactive
isoQC	DRSC11790	4.65	2.53	6427	6116	inactive
isoQC	DRSC28241	3.69	16	786	5825	inactive
GstD8	DRSC16689	4.57	3.49	6565	6993	inactive
GstD8	DRSC24666	1.72	2.44	6320	6117	inactive
